Results of unrelated studies side by side (data: NIAID ChemDB).

Common to all: tests on isolated targets; organism: HIV-1; target: Reverse transcriptase; method: nucleotide incorporation; read-out: IC50

Blank or dashed fields: not listed here.

smiles	changes	strain	result
CO[C@@H]1[C@@H](OC(N)=O)[C@@H](O)[C@H](Oc2ccc3c(O)c(NC(=O)c4ccc(O)c(CC=C(C)C)c4)c(=O)oc3c2C)OC1(C)C			520 µM
O=C(OC1[C@H](OC(=O)c2cc(O)c(O)c(O)c2)CC(O)(C(=O)O)C[C@H]1OC(=O)c1cc(O)c(O)c(O)c1)c1cc(O)c(O)c(O)c1			0.08 µM
CCOC(=O)P(=O)(OCC)OCC			44 µM
CCc1cc(CCc2nc3c(Cl)ccc(Cl)c3o2)c(=S)[nH]c1C	RT-K103N		0.14 µM
CC(C)=CCC[C@H](C)C1CC[C@]2(C)C3=C(CC[C@@]12C)[C@@]1(C)CC[C@H](O)C(C)(C)[C@@H]1CC3			3.8 µM
CC(C)=CCN1Cc2cccc3[nH]c(=S)n(c23)C[C@@H]1C			10 µM
O=c1c(O[C@@H]2OC[C@H](O)[C@H](O)[C@H]2O)c(-c2ccc(O)c(O)c2)oc2cc(O)cc(O)c12		IIIB	>1000 µM
C[C@@H](CNC(=S)Nc1ccc(Cl)cn1)c1ccccc1			0.1 µM
Cc1cc(C)cc(Cc2cc(=O)[nH]c(OC3CCCC3)n2)c1		IIIB	3 µM
Cc1c(Sc2ccccc2)n(COCCO)c(=O)[nH]c1=O			23 µM
O=C(OCC1O[C@@H](O)C(O)(COC(=O)c2cc(O)c(O)c(O)c2)C1OC(=O)c1cc(O)c(O)c(O)c1)c1cc(O)c(O)c(O)c1			>20 µg/mL
O=C(O[C@@H]1C[C@](O)(C(=O)O)C[C@@H](O)[C@H]1O)c1cc(O)c(O)c(O)c1			72.6 µM
O=C(O)P(=O)(O)Oc1ccccc1			6.9 µM
O=C(OCC(OC(=O)c1ccc(O)cc1)C(OC(=O)c1ccc(O)cc1)C(COC(=O)c1ccc(O)cc1)OC(=O)c1ccc(O)cc1)c1ccc(O)cc1			~12 µM
O=c1c(O)c(-c2ccc(O)c(O)c2)oc2cc(O)cc(O)c12		IIIB	635 µM
C[C@@H](CNC(=S)Nc1nccs1)c1ccccc1			10 µM
O=C(O)C1=C[C@@H](O)[C@@H](O)[C@H](OC(=O)c2cc(O)c(O)c(O)c2)C1			92 µM
CCc1cc(CCc2nc3c(Cl)ccc(Cl)c3o2)c(=O)[nH]c1C	RT-Y181C		0.21 µM
O=c1c(O[C@@H]2O[C@H](CO)[C@@H](O)[C@H](O)[C@H]2O)c(-c2ccc(O)cc2)oc2cc(O)cc(O)c12			125 µM
COC(=O)P(=O)(OC)OC			32 µM
COc1cccc(-c2c3nc(c(-c4cccc(OC)c4)c4ccc([nH]4)c(-c4cccc(OC)c4)c4nc(c(-c5cccc(OC)c5)c5ccc2[nH]5)C=C4)C=C3)c1			>100 µM
CC(C)=CCN1Cc2cccc3[nH]c(=S)n(c23)C[C@@H]1C		IIIB	1.1 µM
CC(C)=CCC[C@@H](C)C1=C2CC[C@@H]3[C@@]4(C)CC[C@H](O)C(C)(C)[C@@H]4CC[C@@]3(C)[C@]2(C)CC1			4.5 µM
Cc1cc(C)cc(Cc2nc(OC3CCCCC3)[nH]c(=O)c2C)c1		IIIB	>10 µM
Oc1ccccc1-c1c2nc(c(-c3ccccc3O)c3ccc([nH]3)c(-c3ccccc3O)c3nc(c(-c4ccccc4O)c4ccc1[nH]4)C=C3)C=C2			3 µM
CCN1c2cc(C)c(C)cc2N(C)S(=O)(=O)c2cccnc21			30 µM
Cc1cc(C)cc(Cc2cc(=O)[nH]c(OC3CCCCC3)n2)c1		IIIB	1 µM
CC1(C)c2ccc3c(c2CC[C@H]1O)CC[C@@]1(C)[C@@H]2C[C@](C)(CO)CC[C@]2(C)CC[C@]31C			4.3 µM
CC(=O)c1ccc(C)cc1NC(C(N)=O)c1c(Cl)cccc1Cl			0.35 µg/mL
CC(C)=CCC[C@](C)(O)C1CC[C@]2(C)C1CC[C@@H]1[C@@]3(C)CC[C@H](O)C(C)(C)[C@@H]3CC[C@]12C			>45 µM
CC(C)(C)c1cc(-c2c3nc(c(-c4cc(C(C)(C)C)c(O)c(C(C)(C)C)c4)c4ccc([nH]4)c(-c4cc(C(C)(C)C)c(O)c(C(C)(C)C)c4)c4nc(c(-c5cc(C(C)(C)C)c(O)c(C(C)(C)C)c5)c5ccc2[nH]5)C=C4)C=C3)cc(C(C)(C)C)c1O			>100 µM
Cc1cccc(Cc2cc(=O)[nH]c(OC(C)C)n2)c1		IIIB	1 µM
Cc1c(Sc2ccccc2)n(COCCO)c(=O)[nH]c1=O	RT-Y188L		>10 µM
O=C(O[C@@H]1OC2CC(=O)c3cc(O)c(O)c(O)c3-c3c(cc(O)c(O)c3O)C(=O)OC2C2OC(=O)c3cc(O)c(O)c(O)c3-c3c(cc(O)c(O)c3O)C(=O)OC21)c1cc(O)c(O)c(O)c1			>20 µg/mL
Nc1ccc(-c2c3nc(c(-c4ccc(N)cc4)c4ccc([nH]4)c(-c4ccc(N)cc4)c4nc(c(-c5ccc(N)cc5)c5ccc2[nH]5)C=C4)C=C3)cc1			>100 µM
Cc1cccc(NC(=S)N[C@@H](C)c2cccc3ccccc23)n1			>100 µM
O=C(OC1[C@H](O)CC(OC(=O)c2cc(O)c(O)c(O)c2)(C(=O)O)C[C@H]1O)c1cc(O)c(O)c(O)c1			>20 µg/mL
COC(=O)c1cc(O)c(O)c(O)c1			>1000 µM
CC(C)=CCN1Cc2cccc3[nH]c(=S)n(c23)C[C@@H]1C		RF	0.125 µM
COC(=O)c1cc(O)c(O)c(O)c1		IIIB	>1000 µM
Cc1ccc(OP(=O)(O)C(=O)O)cc1			19.2 µM
Cc1cccc(Cc2nc(OC3CCCC3)[nH]c(=O)c2C)c1		IIIB	>10 µM
CN(c1ncccc1CO)C1CCN(C(=O)c2cc3cc(NS(C)(=O)=O)ccc3[nH]2)CC1		IIIB	50 µM
Nc1ncnc2c1ncn2CC(CF)OCP(=O)(O)OP(=O)(O)OP(=O)(O)O			0.017 µM
c1cnc2c(c1)ccc1cccnc12			343 µM
C=C(C)[C@@H]1CC[C@]2(C)CC[C@]3(C)[C@H](CC[C@@H]4[C@@]5(C)CCC(=O)C(C)(C)[C@@H]5CC[C@]43C)[C@@H]12			2.1 µM
C[C@H](NC(=S)Nc1nc2ccccc2s1)c1cccc2ccccc12			>100 µM
CCC(C)Oc1nc(Cc2cccc(C)c2)cc(=O)[nH]1		IIIB	2 µM
O=c1cc(-c2ccc(O)cc2)oc2cc(O[C@@H]3O[C@H](CO)[C@@H](O)[C@H](O)[C@H]3O)cc(O)c12			>1000 µM
CCN1c2ncccc2C(=O)N(C)c2ccc(-c3cc[nH]c3)nc21	RT-K103N		0.05 µM
CCOC(=O)c1ccc(O)cc1			>50 µM
O=S1(c2ccccc2)=NC(=S)Nc2ccccc21			5.1 µM
CC(C)=C(CC/C(C)=C/CCC1=C(C)CC[C@@]2(C)CCC(C)(C)C[C@@H]12)C(C)CCCO			>47 µM
O=c1c(O[C@@H]2O[C@H](CO)[C@H](O)[C@H](O)[C@H]2O)c(-c2ccc(O)c(O)c2)oc2cc(O)cc(O)c12			1000 µM
Cc1cn([C@@H]2O[C@H](CO[Si](C)(C)C(C)(C)C)C3(OS(=O)(=O)C=C3N)[C@H]2O[Si](C)(C)C(C)(C)C)c(=O)n(C)c1=O		IIIB	1.52 µM
CCOC(=O)Cc1csc(NC(=S)NC[C@H](C)c2ccccc2)n1			>100 µM
COc1ccc(OC(=O)P(=O)(O)O)cc1			5.4 µM
O=c1c(O[C@@H]2OC[C@@H](O)[C@H](O)[C@@H]2O)c(-c2ccc(O)c(O)c2)oc2cc(O)cc(O)c12			1000 µM
Cc1cc(C)cc(Cc2nc(OC3CCCC3)[nH]c(=O)c2C)c1		IIIB	>10 µM
O=C(O[C@@H]1[C@H](O)C[C@@](O)(C(=O)O)C[C@H]1OC(=O)c1cc(O)c(O)c(O)c1)c1cc(O)c(O)c(O)c1			7.81 µM
Cc1ccc(NC(=S)N[C@@H](C)c2ccccc2)nc1			>100 µM
Oc1cc(O)c2c(c1)O[C@H](c1ccc(O)c(O)c1)[C@H](O)C2			>20 µg/mL
Nc1cc(Cl)nc(SC/C=C/c2ccccc2)n1	RT-P236L		0.066 µM
CN(C)[C@@H]1C(=O)C(C(N)=O)=C(O)[C@@]2(O)C(=O)C3=C(O)c4c(O)ccc(Cl)c4[C@@H](O)[C@H]3C[C@@H]12			320 µM
COc1cc2c(cc1OC)[C@H](c1cc(OC)c(OC)c(OC)c1)[C@@H](C)[C@@H](C)C2			2.11 µM
Cc1c(C(C)c2c(F)cccc2F)nc(SC2CCCC2)[nH]c1=O			0.005 µM
Nc1cc(Cl)nc(SCc2ccc3ccccc3c2)n1	RT-P236L		0.15 µM
C[C@H](NC(=S)Nc1ccc(Cl)cn1)c1cccc2ccccc12			>100 µM
CC1(C)CC[C@]2(C(=O)O)CC[C@]3(C)C(=CC[C@@H]4[C@@]5(C)C[C@@H](O)[C@@H]6OC(=O)c7cc(O)c(O)c(O)c7-c7c(cc(O)c(O)c7O)C(=O)OC[C@@]6(CO)[C@@H]5CC[C@]43C)[C@@H]2C1			>20 µg/mL

ICn: concentration for n% inhibition. Neighbouring rows are from separate reports.